Reference: patent US7138231B2 (priority 2000, dated 2006)

Tests used:
Type in all cases: cell-based
[1] = system: HIV-1 patient-derived protease and reverse transcriptase segments (N88S in PR) in resistance test vectors; assay: Phenotypic drug susceptibility test with resistance test vectors from patient samples
[2] = system: HIV-1 patient viruses with protease L90M; assay: Phenotypic susceptibility profiles of 58 patient virus samples with L90M, no other primary mutations
[3] = system: HIV-1 patient viruses with protease L90M; assay: Phenotypic susceptibility profiles of 333 patient virus samples with L90M (not 30 or 50)

In the case of `CC(C)(C)NC(=O)[C@@H]1C[C@@H]2CCCC[C@@H]2CN1C[C@@H](O)[C@H](Cc1ccccc1)NC(=O)[C@H](CC(N)=O)NC(=O)c1ccc2ccccc2n1` [saquinavir], the “Fold Change vs. Reference” value ([1]; patient sample 360, prior PRI IDV, PR I13V, K20M, M36V, N37A, M46I, I62V, L63P, I93L) is reported as 1.88 fold, the “Fold Change vs. Reference” value ([1]; patient sample 627, prior PRI IDV, PR I13I/V, E35D, M46L, L63P, I64V, I73V) is reported as 0.26 fold and the “Fold Change vs. Reference” value ([1]; patient sample 0732, prior PRI NFV, PR K14R, I15V, K20T, E35D, M36I, R41K, I62V, L63Q) is reported as 0.73 fold. The “Fold Change vs. Reference” value ([1]; patient sample 0910, prior PRI NFV, PR M46I, L63P, V77I, I93I/L) was 1.41 fold, the “Fold Change vs. Reference” value ([1]; patient sample 1208, prior PRI NFV, PR I62V, L63P, V77I) was 1.55 fold and the “Fold Change vs. Reference” value ([1]; patient sample 3542, prior PRI IDV, PR I13V, K14R, N37D, M46I, L63P, I93L) was 1.28 fold. The “Fold Change vs. Reference” value ([1]; patient sample 3654, PR I13V, R41K, M46I, L63P, V77I, I93L) was 1.80 fold, the “Percent of viruses with indicated primary mutation(s) which are drug sensitive (fold change in IC50 < 2.5)” value [2] was 46.6% and the “Percent of viruses with indicated primary mutation(s) with reduced susceptibility (fold change in IC50 > 2.5)” value [3] was 79.3%. The “Percent of viruses with indicated primary mutation(s) with reduced susceptibility (fold change in IC50 > 10)” value [3] was 43.5%, the “Mean SQV fold change” value ([3]; number of secondary mutations (weighted count) 0) was 2.4 fold and the “Mean SQV fold change” value ([3]; number of secondary mutations (weighted count) 1) was 2.4 fold. For the same compound, the “Mean SQV fold change” value ([3]; number of secondary mutations (weighted count) 2) was 5.4 fold, the “Mean SQV fold change” value ([3]; number of secondary mutations (weighted count) 3) was 10.0 fold and the “Mean SQV fold change” value ([3]; number of secondary mutations (weighted count) 4) was 36.6 fold. The “Mean SQV fold change” value ([3]; number of secondary mutations (weighted count) 5) was 50.3 fold and the “Mean SQV fold change” value ([3]; number of secondary mutations (weighted count) 6 or more) was 94.2 fold.
